Values of other authors in paper PMC8753592, “Long-acting capsid inhibitor protects macaques from repeat SHIV challenges” (Nature, 2021).

Assays:
Settings in all cases: ref Yant et al, Nat.Med, 2019;[4]; cited from earlier work
[1] = system: CA mutant L56I
[2] = system: CA mutant N74D
[3] = system: CA mutant Q67H
[4] = system: CA mutant M66I

CC(C)(C#Cc1ccc(-c2ccc(Cl)c3c(NS(=O)(=O)C4CC4)nn(CC(F)F)c23)c([C@H](Cc2cc(F)cc(F)c2)NC(=O)Cn2nc(C(F)F)c3c2C(F)(F)[C@@H]2C[C@H]32)n1)S(C)(=O)=O [GS-CA1]
In vitro fold-resistance (CA mutant/wild-type), L56I [1]: 666 | In vitro fold-resistance (CA mutant/wild-type), N74D [2]: 18 | In vitro fold-resistance (CA mutant/wild-type), Q67H [3]: 7.7 | In vitro fold-resistance (CA mutant/wild-type), M66I [4]: 2,272
